Results as given in paper PMC9146215, “Design of D-Amino Acids SARS-CoV-2 Main Protease Inhibitors Using the Cationic Peptide from Rattlesnake Venom as a Scaffold” (Pharmaceuticals, 2022).

Tests used:
Vero CCL-81 cells = assay: MTT cell viability assay; type: cell-based, African green monkey; details: n = 3
Description: Therefore, Vero cells were cultivated in DMEM medium supplemented with 2% fetal calf serum (FCS) and 1% penicillin/streptomycin. A total of 2000 cells per well in a volume of 100 µL were seeded on flat-bottomed 96-well plates (VWR, Radnor, USA) and incubated in a 95% humidified atmosphere with 5% CO2 at 37 °C for 24 h. Subsequently, the cells were treated with 0.2, 1, 5, 10, 25, 50, and 98 µM of each molecule at 37 °C with 5% CO2 for 24 h.
According to the manufacturer’s instructions, cell viability was measured using the Cell Proliferation Kit I (Roche, Basel, Switzerland) in a 3-fold determination. The absorbance of the formazan product was determined by measuring the absorption at 570 nm and subtracted by the absorbance at 690 nm in a microplate reader (BMG Labtech, Ortenberg, Germany). The results were normalised to the mean value of cells treated with medium only. As a […] control for cytotoxicity, 0.1% Triton X-100 diluted in the medium was used. Cell viability was calculated according to Equation (2):(T/C) × 100%(2) where T and C represented the optical density of the treated well and control groups, respectively.

SARS-CoV-2 3CL^pro [1] = target: T1, SARS-CoV-2 3CL^pro (Severe acute respiratory syndrome coronavirus 2, UniProt P0DTD1); assay: Determination of inhibition mode (Lineweaver-Burk plot); type: biochemical; details: 0.5 µM 3CLpro, 30 min incubation at RT, triplicate
T1 construct: SARS-CoV-2 3CL^pro (Uniprot entry: P0DTD1, virus strain: hCoV-19/Wuhan/WIV04/2019) was cloned, expressed, and purified; GST (cleaved yes); made in house; host or cells: E. coli Lemo21 (DE3)
Description: The inhibition mode was determined using different final concentrations of the inhibitors and substrate. […] The remaining L-peptides were not tested.
Briefly, 0.5 µM SARS-CoV-2 3CL^pro was incubated with the inhibitor, in various concentrations, for 30 min at RT. Subsequently, the reaction was initiated by adding the corresponding concentration series of the substrate. The data were analysed using a Lineweaver-Burk plot; therefore, the reciprocal of velocity (1/V) vs the reciprocal of the substrate concentration (1/[S]) was compared. All measurements were performed in triplicate, and data are presented as mean ± SD.

SARS-CoV-2 3CL^pro [2] = target: T1, SARS-CoV-2 3CL^pro; assay: Inhibitor stability over 24 h (24 h inhibition experiment); type: biochemical; details: 0.5 µM 3CLpro with 5 µM peptide, 1/2 h to 24 h at RT, triplicate
Description: Briefly, 0.5 µM SARS-CoV-2 3CL^pro was incubated with 5 µM of the peptide and incubated for 1/2 h, 1 h, 2 h, 3 h, 4 h, 5 h, and 24 h at RT. The control was performed with the 3CL^pro in the absence of the peptide and measured together after each time point. Subsequently, the reaction was initiated by the addition of the substrate. All measurements were performed in triplicate, and data are presented as mean ± SD.

[3] = system: SARS-CoV-2 B1.1 isolate (NRW-42) in Vero cells; type: cell-based
SARS-CoV-2 3CL^pro [4] = target: T1, SARS-CoV-2 3CL^pro; assay: Detergent-based (Triton X-100) control assay for aggregation-based promiscuous inhibition; type: biochemical; details: 0.001%, 0.01%, 0.1% Triton X-100; four peptide concentrations; triplicate
Description: A detergent-based control assay was performed to exclude inhibitors that possibly act as aggregators of the 3CL^pro by adding 0.001%, 0.01%, and 0.1% of Triton X-100 to the reaction. […] All measurements were performed in triplicate, and data are presented as mean ± SD.

SARS-CoV-2 3CL^pro [5] = target: T1, SARS-CoV-2 3CL^pro; assay: SARS-CoV-2 3CLpro fluorogenic (DABCYL/EDANS substrate) inhibition assay; type: biochemical; details: dose-dependent study, 0.5 µM 3CLpro, n = 3
Description: The SARS-CoV-2 3CL^pro activity assay was performed using DABCYL-KTSAVLQ/SGFRKME-EDANS (Bachem, Switzerland) as substrate.
SARS-CoV-2 3CL^pro activity assay was performed using a fluorogenic substrate DABCYL-KTSAVLQ↓SGFRKME-EDANS (Bachem, Bubendorf, Switzerland) in a buffer containing 20 mM Tris pH 7.2, 200 mM NaCl, 1 mM EDTA, and 1 mM TCEP [31, 32, 33, 34]. The reaction mixture was pipetted in a Corning 96-well plate (Merck, Darmstadt, Germany) containing 0.5 µM protein. The assay was initiated with the addition of the substrate at a final concentration of 50 µM. The fluorescence intensities were measured at 60 s intervals over 30 min using an Infinite 200 PRO plate reader (Tecan, Männedorf, Switzerland), and the temperature was set to 37 °C. […]
For the final inhibition assays, 0.5 µM of the protein was mixed with 0–300 µM Cro, 0–150 µM L-CDPs, and 0–125 µM D-CDPs and subsequently incubated for 30 min at RT. […] When the substrate with a final concentration of 50 µM was added to the mixture, the fluorescence intensities were measured at 60 s intervals over 30 min using an Infinite 200 PRO plate reader (Tecan, Männedorf, Switzerland). […]
The IC50 value was calculated by plotting the initial velocity against various concentrations of the combined molecules using a dose-response curve in GraphPad Prism5 software (Tecan, Männedorf, Switzerland). […]

Structure (SMILES)	Cytotoxic effect at the calculated IC50 concentrations (Vero CCL-81 cells)	Inhibition Type (SARS-CoV-2 3CL^pro [1])	Inhibition of SARS-CoV-2 3CLpro over 24 h (stability of inhibitor) (SARS-CoV-2 3CL^pro [2])	Viral RNA in cell culture supernatant [3]	Aggregation-based inhibition (inhibition diminished by detergent) (SARS-CoV-2 3CL^pro [4])	Concentration giving 100% protease inhibition (SARS-CoV-2 3CL^pro [5]) [µM]
COC(=O)[C@@H](CCCCN)NC(=O)[C@@H](CCCCN)NC(=O)[C@@H](CS)NC(=O)[C@@H](CO)NC(=O)[C@@H](CCCCN)NC(=O)[C@@H](Cc1c[nH]c2ccccc12)NC(=O)[C@@H](CCCNC(=N)N)NC(=O)[C@@H](Cc1c[nH]c2ccccc12)NC(=O)[C@@H](CCCNC(=N)N)NC(=O)[C@@H](CS)NC(=O)[C@@H](CC(=O)O)NC(=O)[C@@H](CCSC)NC(=O)[C@@H](CCCCN)NC(C)=O [D-CDP7]	no cytotoxic effect	Competitive	constant inhibition	significant decrease in viral RNA	not observed	–
COC(=O)[C@H](CCCCN)NC(=O)[C@H](CCCCN)NC(=O)[C@H](CS)NC(=O)[C@H](CO)NC(=O)[C@H](CCCCN)NC(=O)[C@H](Cc1c[nH]c2ccccc12)NC(=O)[C@H](CCCNC(=N)N)NC(=O)[C@H](Cc1c[nH]c2ccccc12)NC(=O)[C@H](CCCNC(=N)N)NC(=O)[C@H](CS)NC(=O)[C@H](CC(=O)O)NC(=O)[C@H](CCSC)NC(=O)[C@H](CCCCN)NC(C)=O [L-CDP7]	–	Competitive	constant inhibition	–	not observed	–
COC(=O)[C@H](CCCCN)NC(=O)[C@H](CCCCN)NC(=O)[C@H](CO)NC(=O)[C@H](CS)NC(=O)[C@H](CCCCN)NC(=O)[C@H](Cc1c[nH]c2ccccc12)NC(=O)[C@H](CCCNC(=N)N)NC(=O)[C@H](Cc1c[nH]c2ccccc12)NC(=O)[C@H](CCCNC(=N)N)NC(=O)[C@H](CS)NC(=O)[C@H](CC(=O)O)NC(=O)[C@H](CCSC)NC(=O)[C@H](CCCCN)NC(C)=O [L-CDP8]	–	Competitive	–	–	–	60
